A mixed list of measured activities; the numbers were collected in NIAID ChemDB.

Shared fields: growth or infection tests; agent: HIV-1; cells: MT-4; method: p24; endpoint: EC95

Two numbers with a dash give a range or band. An empty or dashed field is not shown. Lines come from different laboratories, so protocols vary. ECn is the concentration giving n% inhibition of infection, replication or growth.

smiles,strain or isolate,changes,result
N#Cc1cc(Cl)cc(Oc2cc(Cl)cc(OCC(=O)Nc3ccc(C#N)cc3Cl)c2)c1,-,-,<20 µM
O=C1c2c(O)c(=O)n(C3CCSCC3)c(=O)n2CCN1Cc1ccc(F)cc1,-,-,<10 µM
COCCN(C)c1ccc2c(COc3ccc(Cl)c(Oc4cc(Cl)cc(C#N)c4)c3)[nH]nc2n1,-,-,<20 µM
Cc1ccc(CNC(=O)c2nc3n(c(=O)c2O)CCN(C2CC2)CC3N(C)C(=O)C(=O)N(C)C)cc1Cl,-,-,<1 µM
CC(C)[C@H](NC(=O)OCc1ccccn1)C(=O)N[C@@H](Cc1ccccc1)[C@@H](O)C[C@H](Cc1ccccc1)NC(=O)OCc1cccnc1,NL4-3,PR-L10R,0.8 µM
O=C1c2c(O)c(=O)n(CC3CCCCC3)c(=S)n2CCN1Cc1ccc(F)cc1,-,-,<10 µM
CN1CCn2c(nc(C(=O)NCc3ccc(F)c(Cl)c3)c(O)c2=O)C1(C)C,-,-,<1 µM
O=C1c2c(O)c(=O)n(CC3COCCN3)c(=O)n2CCN1Cc1ccc(F)cc1,-,-,<10 µM
CN1Cn2c(nc(C(=O)NCc3ccc(F)cc3S(C)(=O)=O)c(O)c2=O)C1(C)C,-,-,<1 µM
N#Cc1cccc(Oc2cc(Cl)cc(OCC(=O)Nc3ccc(S(N)(=O)=O)cc3Cl)c2)c1,-,-,<20 µM
CC(C)NC(=S)N(C)CCC1CN(Cc2ccc(F)cc2)C(=O)c2c(O)c(=O)n(C(C)C)c(=O)n21,-,-,<10 µM
CNc1ccc2c(COc3ccc(Cl)c(Oc4cc(Cl)cc(C#N)c4)c3)[nH]nc2n1,-,-,<20 µM
Cn1ccc(CN2CCn3c(nc(C(=O)NCc4ccc(F)cc4)c(O)c3=O)C23CC3)n1,-,-,<1 µM
N#Cc1cc(Cl)cc(Oc2cc(OCC(=O)Nc3ccncc3C(F)(F)F)ccc2Cl)c1,-,-,<20 µM
CN(CC1c2nc(C(=O)NCc3ccc(F)cc3)c(O)c(=O)n2CCN1C)C(=O)c1cccc[n+]1[O-],-,-,1–10 µM
CC1(C)CC(n2c(=O)c(O)c3n(c2=O)CCN(Cc2ccc(F)cc2)C3=O)CCO1,-,-,<10 µM

The last 2 rows once more:

smiles | strain or isolate | changes | result
CN(CC1c2nc(C(=O)NCc3ccc(F)cc3)c(O)c(=O)n2CCN1C)C(=O)c1cccc[n+]1[O-] | - | - | 1–10 µM
CC1(C)CC(n2c(=O)c(O)c3n(c2=O)CCN(Cc2ccc(F)cc2)C3=O)CCO1 | - | - | <10 µM